# Test results from US20100047237A1.
# Molecular target: VD9 (germline Vκ1 light chain variable domain), wild type
# Assay: cell-based or functional assay
binder,measurement,value
"QTAEF (modifications not checked) [synthetic ""zipper"" peptide PL (QTAEF)]",fibrillogenesis of VD9 (ThT fluorescence) (fold molar excess),10
